Results reported in PMC6151865, “Targeting protein biotinylation enhances tuberculosis chemotherapy” (Science Translational Medicine, 2018).

Tested on: Mtb
Assay: Viability of Mtb in standard liquid culture (CFU)
Type: cell-based, Mycobacterium tuberculosis
Settings: after 10 days of drug exposure

Compound: NNC(=O)c1ccncc1 [isoniazid]
- emergence of resistant mutants in liquid culture: mutants resistant to isoniazid appeared
